Results of unrelated studies side by side (data: NIAID ChemDB).

Shared fields: whole-cell or culture tests; agent: Hepatitis C virus

Rows are shuffled and stem from different studies. ECn: concentration that inhibits the pathogen or its effect by n%. Percent inhibition refers to the dose given; in toxicity tests it is the harm to the cells. An empty or dashed field is not shown. a–b is a range or a potency band. Fold resistance: result on the changed form divided by that on wild type.

compound	changes	tested at	measure	cell line	read by	strain or isolate	result
CC1CCC(C(=O)N(c2cc(C#CC(C)(C)C)sc2C(=O)O)C2CCC(O)CC2)CC1	M423V	-	fold resistance	Huh7	luciferase	H77 (GT1a)	17.9
CCCN1CCC(C(=O)Nc2ccc(Oc3ccccc3F)cc2)CC1	-	5 µM	inhibition	Huh7	PCR	JFH-1	≥40%
CC1(C)CC[C@@]2(C(=O)NCCOCCNC(=O)[C@]34CCC(C)(C)CC3C3=CCC5[C@@]6(C)CC[C@H](O)C(C)(C)C6CC[C@@]5(C)[C@]3(C)C[C@H]4O)C(C1)C1=CCC3[C@@]4(C)CC[C@H](O)C(C)(C)C4CC[C@@]3(C)[C@]1(C)C[C@H]2O	-	1 µM	inhibition	Huh7	luciferase / entry	-	73.7%
NC(=S)Nc1ccc2c(c1)-c1ccccc1C2=O	-	-	EC50	Ava5-EG(delta4AB)SEAP	reporter gene / fluorescence	-	0.001–1 µM
CC1(C)CC[C@@]2(C(=O)NCc3cn(CCO)nn3)C(C1)C1=CCC3[C@@]4(C)CC[C@H](O)C(C)(C)C4CC[C@@]3(C)[C@]1(C)C[C@H]2O	-	5 µM	inhibition	Huh7	luciferase / entry	-	62.5%
NC(=S)Nc1ccc2c(c1)Cc1cc(N)ccc1-2	-	-	EC50	Ava5-EG(delta4AB)SEAP	reporter gene / fluorescence	-	0.001–1 µM
CC1(C)CC[C@@]2(C(=O)NCc3cn(CCc4ccc(CCn5cc(CNC(=O)[C@]67CCC(C)(C)CC6C6=CCC8[C@@]9(C)CC[C@H](O)C(C)(C)C9CC[C@@]8(C)[C@]6(C)C[C@H]7O)nn5)cc4)nn3)C(C1)C1=CCC3[C@@]4(C)CC[C@H](O)C(C)(C)C4CC[C@@]3(C)[C@]1(C)C[C@H]2O	-	1 µM	inhibition	Huh7	luciferase / entry	-	65.2%
O=C(Nc1cccc(-c2cscn2)c1)C1CCN(C/C=C/c2ccc(F)cc2)CC1	-	15 µM	inhibition	Huh7	PCR	JFH-1	<40%
NC(=S)Nc1cccc(OCCCCCNc2ccccc2C2CCCCC2)c1	-	-	EC50	Ava5-EG(delta4AB)SEAP	reporter gene / fluorescence	-	0.001–1 µM
CC(=O)N1c2cccc(O)c2NC2=C(C(=O)CC3(CCCCC3)C2)C1c1ccc(Cl)cc1Cl	-	-	EC50	-	luciferase / reporter gene / replicon	1b	8.51 µM
COc1c(-c2ccc3cc(NS(C)(=O)=O)ccc3c2)cc(-n2ccc(=O)[nH]c2=O)cc1C(C)(C)C	N411S	-	EC50	Huh7	luciferase	genotype 1b Con1	0.05 µM
COC(=O)N[C@H](C(=O)N1CCC[C@H]1c1ncc(-c2ccc(-c3ccc(-c4cnc([C@@H]5CCCN5C(=O)[C@@H](NC(=O)OC)C(C)C)[nH]4)cc3)cc2)[nH]1)C(C)C	P32L	-	EC50	ET	luciferase	1b	0.000027 µM
CCn1cc(CN2CCC(C(=O)Nc3ccc(Oc4ccccc4F)cc3)CC2)cn1	-	5 µM	inhibition	Huh7	PCR	JFH-1	≥40%
COc1ccc(-c2ocnc2C(=O)N2c3cccc(O)c3NC3=C(C(=O)CC(C)(C)C3)C2c2ccc(OCc3ccccc3)cc2F)cc1	-	-	EC50	-	luciferase / reporter gene / replicon	1b	2.8 µM
NC(=S)Nc1ccc2c(c1)Cc1cc(NCCCc3ccccc3)ccc1-2	-	-	EC50	Ava5-EG(delta4AB)SEAP	reporter gene / fluorescence	-	0.001–1 µM
CC(=O)N1c2cccc(O)c2NC2=C(C(=O)CC(C)(C)C2)C1c1ccc(OCc2ccccc2)c(Cl)c1	-	-	EC50	-	luciferase / reporter gene / replicon	1b	2.18 µM
O=C(N[C@@H](C(=O)N1CCC[C@H]1c1ncc(-c2ccc(-c3ccc(-c4cnc([C@@H]5CCCN5C(=O)[C@H](NC(=O)C5CC5)c5ccccc5)s4)cc3)cc2)s1)c1ccccc1)C1CC1	V153M	-	fold resistance	Huh7.5	luciferase / reporter gene	genotype 1b	1
Cc1nn(C(C)C)c(C)c1CN1CCC(C(=O)Nc2cccc(-c3cccc(F)c3)c2)CC1	-	5 µM	inhibition	Huh7	PCR	JFH-1	≥40%
CC1(C)CC[C@@]2(C(=O)NCc3cn(CC(Cn4cc(CNC(=O)[C@]56CCC(C)(C)CC5C5=CCC7[C@@]8(C)CC[C@H](O)C(C)(C)C8CC[C@@]7(C)[C@]5(C)C[C@H]6O)nn4)(Cn4cc(CNC(=O)[C@]56CCC(C)(C)CC5C5=CCC7[C@@]8(C)CC[C@H](O)C(C)(C)C8CC[C@@]7(C)[C@]5(C)C[C@H]6O)nn4)Cn4cc[n+](CNC(=O)[C@]56CCC(C)(C)CC5C5=CCC7[C@@]8(C)CC[C@H](O)C(C)(C)C8CC[C@@]7(C)[C@]5(C)C[C@H]6O)n4)nn3)C(C1)C1=CCC3[C@@]4(C)CC[C@H](O)C(C)(C)C4CC[C@@]3(C)[C@]1(C)C[C@H]2O	-	5 µM	inhibition	Huh7	luciferase / entry	-	58.4%
CC(C)(CCOc1ccccc1)CCOc1cccc(NC(N)=S)c1	-	-	EC50	Ava5-EG(delta4AB)SEAP	reporter gene / fluorescence	-	0.001–1 µM
CC1(C)CC[C@@]2(C(=O)NCc3cn(CCn4cc(CNC(=O)[C@]56CCC(C)(C)CC5C5=CCC7[C@@]8(C)CC[C@H](O)C(C)(C)C8CC[C@@]7(C)[C@]5(C)C[C@H]6O)nn4)nn3)C(C1)C1=CCC3[C@@]4(C)CC[C@H](O)C(C)(C)C4CC[C@@]3(C)[C@]1(C)C[C@H]2O	-	1 µM	inhibition	Huh7	luciferase / entry	-	57.1%
N#Cc1ccccc1OCCCCCOc1cccc(NC(N)=S)c1	-	-	EC50	Ava5-EG(delta4AB)SEAP	reporter gene / fluorescence	-	0.001–1 µM
CC1(C)CC(=O)C2=C(C1)Nc1c(O)cccc1N(C(=O)OCCC(=O)O)C2c1ccc(OCc2ccccc2)cc1Cl	-	-	EC50	-	luciferase / reporter gene / replicon	1b	>100 µM
CC1(C)CC[C@@]2(C(=O)NCCOCCOCCOCCNC(=O)[C@]34CCC(C)(C)CC3C3=CCC5[C@@]6(C)CC[C@H](O)C(C)(C)C6CC[C@@]5(C)[C@]3(C)C[C@H]4O)C(C1)C1=CCC3[C@@]4(C)CC[C@H](O)C(C)(C)C4CC[C@@]3(C)[C@]1(C)C[C@H]2O	-	1 µM	inhibition	Huh7	luciferase / entry	-	77.5%
COc1cc(CN2CCC(C(=O)Nc3cccc(-c4cccc(Cl)c4)c3)CC2)ccc1O	-	15 µM	inhibition	Huh7	PCR	JFH-1	≥40%
CC1(C)CC(=O)C2=C(C1)Nc1c(O)cccc1N(C(=O)c1ccccc1F)[C@H]2c1ccc(OCc2ccccc2)cc1F	-	-	EC50	-	luciferase / reporter gene / replicon	1b	0.53 µM
NC(=S)Nc1cccc(OCCCCOc2ccccc2)c1	-	-	EC50	Ava5-EG(delta4AB)SEAP	reporter gene / fluorescence	-	0.001–1 µM

For reference, 2 entries again:

compound | changes | tested at | measure | cell line | read by | strain or isolate | result
N#Cc1ccccc1OCCCCCOc1cccc(NC(N)=S)c1 | - | - | EC50 | Ava5-EG(delta4AB)SEAP | reporter gene / fluorescence | - | 0.001–1 µM
CC1(C)CC[C@@]2(C(=O)NCCOCCOCCOCCNC(=O)[C@]34CCC(C)(C)CC3C3=CCC5[C@@]6(C)CC[C@H](O)C(C)(C)C6CC[C@@]5(C)[C@]3(C)C[C@H]4O)C(C1)C1=CCC3[C@@]4(C)CC[C@H](O)C(C)(C)C4CC[C@@]3(C)[C@]1(C)C[C@H]2O | - | 1 µM | inhibition | Huh7 | luciferase / entry | - | 77.5%